In publication PMC3036652, “Functional Analysis of an Acid Adaptive DNA Adenine Methyltransferase from Helicobacter pylori 26695” (PLoS ONE, 2011):
The exact form of at least one protein or probe is not confirmed. Tags and fusion partners may be left off the protein sequences shown.

Assays:
[1] = biological target: T1, HP0593 DNA-(N6-adenine)-methyltransferase (HP0593 MTase) (Helicobacter pylori 26695) (UniProt O25315); assay: EMSA; details: no cofactor, no metal, weak complexes CI and CII; EMSA: 10 mM potassium phosphate pH 5.5, 7 mM β-mercaptoethanol, 10% glycerol, no divalent metal, 10 min on ice, 0.5-5.0 µM protein, ~100 nM DNA, gel 0.5x TBE 4°C; recombinant protein; residues 1-598; protein details: N-terminal His6 (pET14b); label: 5' 32P
T1 sequence (looked up): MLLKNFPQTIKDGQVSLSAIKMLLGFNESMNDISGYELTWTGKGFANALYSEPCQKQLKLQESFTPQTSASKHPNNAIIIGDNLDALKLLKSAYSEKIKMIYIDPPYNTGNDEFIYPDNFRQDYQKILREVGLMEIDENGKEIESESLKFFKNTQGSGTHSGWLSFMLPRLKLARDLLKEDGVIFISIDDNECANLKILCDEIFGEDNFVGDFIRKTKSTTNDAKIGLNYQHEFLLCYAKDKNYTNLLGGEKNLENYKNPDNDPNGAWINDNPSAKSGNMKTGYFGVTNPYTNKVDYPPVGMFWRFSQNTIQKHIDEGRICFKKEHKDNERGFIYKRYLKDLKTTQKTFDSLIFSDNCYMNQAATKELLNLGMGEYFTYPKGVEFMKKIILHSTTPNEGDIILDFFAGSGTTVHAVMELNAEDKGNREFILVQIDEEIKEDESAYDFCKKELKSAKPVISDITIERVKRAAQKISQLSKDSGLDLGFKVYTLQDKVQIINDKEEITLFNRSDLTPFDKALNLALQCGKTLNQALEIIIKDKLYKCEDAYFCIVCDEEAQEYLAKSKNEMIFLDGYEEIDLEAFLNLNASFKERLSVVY

[2] = biological target: T1, HP0593 DNA-(N6-adenine)-methyltransferase (HP0593 MTase) (Helicobacter pylori 26695); assay: SPR; details: no metal; SPR: 10 mM HEPES pH 7.4, 100 mM NaCl, 0.05% P-20, ±1.0 mM MnCl2, 25°C, 1:1 Langmuir global fit; recombinant protein; residues 1-598; protein details: N-terminal His6 (pET14b); label: 5' biotin on top strand, immobilized on SA chip

| Sequence | binding result [1] | Kd [2] |
| --- | --- | --- |
| GATCAATAGATGCGCAGATCATTTACATT (double strand) [duplex 2] | binds |  |
| GATCAATAGATGCGCAGATCATTTACATT (double strand) [duplex 18] |  | 2.84 µM |
